Anti-infective test results gathered from many reports (values: NIAID ChemDB through PubChem).

Common to all: whole-cell or culture tests; species: HIV-1; cell line: MT-4; measure: EC95

Blank or dashed fields: not listed here. ECn: concentration that inhibits the pathogen or its effect by n%. Neighbouring rows are from separate reports.

compound	strain	mutations	read by	conditions	value
O=C(N[C@H]1c2ccccc2OC[C@H]1O)[C@H](Cc1cccnc1)C[C@H](O)CN1CCN(Cc2ccn(-c3ccc(C(F)(F)F)cc3)c2)C[C@H]1C(=O)NCC(F)(F)F	Q-60C Clinical isolate	PR-L10I N37S R41K M46I I54V I62V L63P A71V V77I V82A L90M I93L	p24	-	≤0.008 µM
CC(=O)N(C)C1CCn2c1nc(C(=O)NCc1ccc(F)cc1)c(O)c2=O	IIIB	-	p24 / ELISA	50% human serum	>1 µM
O=C(N[C@H]1c2ccccc2OC[C@H]1O)[C@H](Cc1cccnc1)C[C@H](O)CN1CCN(Cc2ccn(-c3ccc(Cl)cc3)c2)C[C@H]1C(=O)NCC(F)(F)F	Q-60C Clinical isolate	PR-L10I N37S R41K M46I I54V I62V L63P A71V V77I V82A L90M I93L	p24	-	≤0.008 µM
CCc1cc(NCc2nc3c(C)ccc(C)c3o2)c(=O)[nH]c1C	A17	-	p24	-	25 µM
O=C1N(Cc2ccc(CO)cc2)[C@H](Cc2ccccc2)[C@H](O)[C@@H](O)[C@@H](Cc2ccccc2)N1Cc1ccc(CO)cc1	NL4-3	PR-L10R M46I L63P V82T I84V	p24	-	3 µM
Cc1ccc(-n2nnnc2SCC(=O)Nc2ccc(C)c([N+](=O)[O-])c2)cc1	-	-	p24	-	<10 µM
CN(Cc1ccccc1)C(=O)c1nc(C2COCCN2C)n(C)c(=O)c1O	IIIB	-	p24 / ELISA	10% FBS	>8 µM
CNC(=O)c1[nH]c2ccccc2c1Sc1ccccc1	IIIB	-	p24 / ELISA	-	0.8 µM
O=c1[nH]cnc2c1ncn2[C@H]1CC[C@@H](CO)O1	rHXB2	-	p24	-	25 µM
Cc1cc(C)c(-n2nnnc2SCC(=O)Nc2ccc(F)cc2[N+](=O)[O-])c(C)c1	-	-	p24	-	<10 µM
O=C(N[C@H]1c2ccccc2OC[C@H]1O)[C@H](Cc1cccnc1)C[C@H](O)CN1CCN(Cc2ccn(-c3cc(Cl)c(Cl)c(Cl)c3)c2)C[C@H]1C(=O)NCC(F)(F)F	NL4-3 WT	-	p24	-	≤0.008 µM
O=C(NCc1ccc(F)cc1)c1nc(C2CCCNC2)[nH]c(=O)c1O	IIIB	-	p24	50% human serum	>10 µM
CN1C[C@H](OCc2ccccc2)C[C@H]1c1nc(C(=O)NCc2ccc(F)cc2)c(O)c(=O)n1C	IIIB	-	p24 / ELISA	50% human serum	0.31 µM
O=C(CSc1nnnn1-c1cccc2ccccc12)Nc1ccc(Cl)cc1Cl	-	-	p24	-	<10 µM
COC(=O)c1[nH]c2ccccc2c1Sc1ccccc1	IIIB	-	p24 / ELISA	-	>3 µM
O=C(NCc1ccc(F)cc1)c1nc(C2CCNCC2)[nH]c(=O)c1O	IIIB	-	p24	10% FBS	>10 µM
CN1CCC[C@H]1c1nc(C(=O)NCc2ccc(F)cc2)c(O)c(=O)n1C	IIIB	-	p24 / ELISA	10% FBS	>1 µM
O=C(N[C@H]1c2ccccc2OC[C@H]1O)[C@H](Cc1cccnc1)C[C@H](O)CN1CCN(Cc2ccn(-c3ccc(F)c(F)c3F)c2)C[C@H]1C(=O)NCC(F)(F)F	V-18C Clinical isolate	PR-L10I M36I N37D M46I R57K L63P A71V G73S I84V L90M I93L	p24	-	≤0.008 µM
N#Cc1ccccc1C#CC1(C2CC2)NC(=O)Nc2ccc(Cl)cc21	IIIB	-	-	-	0.012 µM
Cn1c(C2COCCN2)nc(C(=O)NCc2ccc(F)cc2)c(O)c1=O	IIIB	-	p24 / ELISA	50% human serum	>1 µM
NC(=O)c1[nH]c2ccc(Cl)cc2c1Sc1ccccc1	IIIB	-	p24 / ELISA	-	0.2 µM
O=C1Nc2ccc(Cl)cc2C(C#Cc2ccccc2)(C2CC2)N1	IIIB	-	-	-	0.1 µM
CN(C)Cc1nc(C(=O)NCc2ccc(F)cc2)c(O)c(=O)[nH]1	IIIB	-	p24	10% FBS	1 µM
CC(C)=CCN1c2cc(Cl)cc3[nH]c(=S)n(c23)C[C@@H]1C	-	RT-L74V Y181C	-	-	>3 µM
CC(=O)N[C@H]1C[C@@H](c2nc(C(=O)NCc3ccc(F)cc3)c(O)c(=O)n2C)N(C)C1	IIIB	-	p24 / ELISA	10% FBS	>1 µM
NC(=O)c1[nH]c2ccc(Cl)cc2c1S(=O)c1ccccc1	IIIB	-	p24 / ELISA	-	0.2 µM
CN1CC(O)C(C)(C)Cn2c(c3c(c(O)c2=O)C(=O)N(Cc2ccc(F)c(Cl)c2)CC3)C1=O	-	-	p24	-	0.031 µM
CCc1cc(NCc2nc3ccccc3o2)c(=O)[nH]c1C	rA17	-	p24	-	200 µM
CN(C)C(=O)C(=O)N(C)C1CCn2c1nc(C(=O)NCc1ccc(F)cc1)c(O)c2=O	IIIB	-	p24 / ELISA	10% FBS	>1 µM
O=S(Cc1[nH]c2ccccc2c1S(=O)c1ccccc1)c1ccccc1	IIIB	-	p24 / ELISA	-	>3 µM
Cc1cc(C)c(-n2nnnc2SCC(=O)Nc2ccc(F)cc2Cl)c(C)c1	-	-	p24	-	<10 µM
O=C(N[C@H]1c2ccccc2OC[C@H]1O)[C@H](Cc1cccnc1)C[C@H](O)CN1CCN(Cc2ccn(-c3cccc(Cl)c3)c2)C[C@H]1C(=O)NCC(F)(F)F	NL4-3 WT	-	p24	-	≤0.008 µM
Cn1c(C2COCCN2C(=O)OC(C)(C)C)nc(C(=O)NCc2ccc(F)cc2)c(O)c1=O	IIIB	-	p24 / ELISA	10% FBS	>1 µM
O=C(N[C@H]1c2ccccc2OCC1O)[C@H](Cc1cccnc1)C[C@H](O)CN1CCN(Cc2ccc(-c3ccccc3)o2)C[C@H]1C(=O)NCC(F)(F)F	K-60C Clinical isolate	PR-L10I M46I I54V Q58E L63P I64V V77I V82F I84V L90M I93L	p24	-	≤0.008 µM
CC(C)CN1CCCCC1c1nc(C(=O)NCc2ccc(F)cc2)c(O)c(=O)[nH]1	IIIB	-	p24	50% human serum	>10 µM
Cc1ccccc1CNC(=O)[C@H]1N(C[C@@H](O)C[C@@H](Cc2ccccc2)C(=O)N[C@H]2c3ccccc3OC[C@H]2O)CSC1(C)C	-	-	p24	-	0.25 µM
Cc1cccc(-n2ccc(CN3CCN(C[C@@H](O)C[C@@H](Cc4cccnc4)C(=O)N[C@H]4c5ccccc5OC[C@H]4O)[C@H](C(=O)NCC(F)(F)F)C3)c2)c1	V-18C Clinical isolate	PR-L10I M36I N37D M46I R57K L63P A71V G73S I84V L90M I93L	p24	-	≤0.008 µM
CC(C)(C)NC(=O)[C@@H]1C[C@@H]2CCCC[C@@H]2CN1C[C@@H](O)[C@H](Cc1ccccc1)NC(=O)[C@H](CC(N)=O)NC(=O)c1ccc2ccccc2n1	NL4-3	PR-M46I V82T	p24	-	0.025 µM
O=C(N[C@H]1c2ccccc2OC[C@H]1O)[C@H](Cc1cccnc1)C[C@H](O)CN1CCN(Cc2ccn(-c3cccc(C(F)(F)F)c3)c2)C[C@H]1C(=O)NCC(F)(F)F	Q-60C Clinical isolate	PR-L10I N37S R41K M46I I54V I62V L63P A71V V77I V82A L90M I93L	p24	-	≤0.008 µM
COc1ccc(NC(=O)CSc2nnnn2-c2c(C)cc(C)cc2C)c(C)c1	-	-	p24	-	<10 µM

For reference, 4 entries again:

compound	strain	mutations	read by	conditions	value
O=C1Nc2ccc(Cl)cc2C(C#Cc2ccccc2)(C2CC2)N1	IIIB	-	-	-	0.1 µM
NC(=O)c1[nH]c2ccc(Cl)cc2c1Sc1ccccc1	IIIB	-	p24 / ELISA	-	0.2 µM
O=C(N[C@H]1c2ccccc2OC[C@H]1O)[C@H](Cc1cccnc1)C[C@H](O)CN1CCN(Cc2ccn(-c3ccc(C(F)(F)F)cc3)c2)C[C@H]1C(=O)NCC(F)(F)F	Q-60C Clinical isolate	PR-L10I N37S R41K M46I I54V I62V L63P A71V V77I V82A L90M I93L	p24	-	≤0.008 µM
CC(C)=CCN1c2cc(Cl)cc3[nH]c(=S)n(c23)C[C@@H]1C	-	RT-L74V Y181C	-	-	>3 µM